The data set has as its system BR425 cells. Put plainly: BR425 monoterpene metabolites from two-phase incubation (GC/MS). The note with it: 24 h incubation, average of two experiments. Details: key: ND: Not-detected; Trace. The data set is classed as cell-based, Bacillus BR425.

For the compound `CC1=CCC(C(C)(C)O)CC1` (stereo not drawn) [alpha-terpineol, α-terpineol], the Metabolites (Organic Phase Limonene) was found to be 1.4 mg/L.

Regarding `C=C(C)C1CC=C(C)[C@@H](O)C1` (stereo partly drawn) [carveol], the Metabolites turned out to be 10.2 mg/L (Organic Phase Limonene), 14.3 mg/L (Organic Phase α-pinene) and 9.6 mg/L (Organic Phase β-pinene).

Take `C=C(C)C1CC=C(C)C(=O)C1` (stereo not drawn) [carvone]: the Metabolites is 7.5 mg/L (Organic Phase Limonene), “Tr” (Organic Phase α-pinene) and “Tr” (Organic Phase β-pinene).

As for `C=C(C)[C@H]1CC=C(C)CC1` [limonene], the Metabolites reads like this: (Organic Phase α-pinene) 1.31 mg/L; (Organic Phase β-pinene) 1.1 mg/L.

`CC1(C)C2CC=C(CO)C1C2` (stereo not drawn) [myrtenol]: the Metabolites runs as follows: (Organic Phase α-pinene) 23.4 mg/L; (Organic Phase β-pinene) 17.1 mg/L.

As for `C=C1C(O)CC2CC1C2(C)C` (stereo not drawn) [pinocarveol], the Metabolites is, setting by setting: (Organic Phase α-pinene) 20.5 mg/L; (Organic Phase β-pinene) 19.3 mg/L.

With `C=C1C(=O)CC2CC1C2(C)C` (stereo not drawn) [pinocarvone], the Metabolites is, setting by setting: (Organic Phase α-pinene) 7.2 mg/L; (Organic Phase β-pinene) 6.8 mg/L.

With `C=C1CCC2CC1C2(C)C` (stereo not drawn) [β-pinene], under “Organic Phase α-pinene”, the Metabolites worked out at 4.38 mg/L.

As to myrtenal, the Metabolites is 19.5 mg/L (Organic Phase α-pinene) and 12.5 mg/L (Organic Phase β-pinene).

(Values after patent publication US6344350B1, “Method for degradation of pinenes by bacillus isolates” (priority 1997, dated 2002).)
